In US11617740B2, “Chemical inhibitors of Mycobacterium tuberculosis DosRST signaling and persistence” (priority 2017, dated 2023):

Tested on: DosRST pathway, CDC1551 (hspX′::GFP) reporter strain
Assay: microbe, parasite or virus in culture
Format: cell-based
Conditions: Mycobacterium tuberculosis, Table 4, fluorescence inhibition, doses 200 μM to 0.328 μM

SMILES | EC50 [µM]
CN(C(=O)Nc1ccno1)c1ccc(Cl)cc1 [MSU-39451, 1-(4-chlorophenyl)-1-methyl-3-(1,2-oxazol-5-yl)urea] | 4.14
O=C(Nc1ccc(Cl)cc1)c1ccno1 [MSU-41422] | > 200
O=C(Cc1ccc(Cl)cc1)Nc1ccno1 [MSU-39449] | 5.2
O=C(Nc1ccc(Cl)cn1)Nc1ccno1 [MSU-39450, 1-(5-chloropyridin-2-yl)-3-(1,2-oxazol-5-yl)urea] | 1.95
O=C(Nc1ccon1)Nc1ccc(Cl)cc1Cl [HC106C] | > 200
O=C(Nc1ccc(Cl)cc1)Nc1ccno1 [HC106F, 1-(4-chlorophenyl)-3-(1,2-oxazol-5-yl)urea] | 1.33
O=C(Nc1ccno1)Nc1ccno1 [MSU-39444, 1,3-bis(1,2-oxazol-5-yl)urea] | 1.7
O=C(Nc1ccno1)Nc1ccc(Cl)cc1Cl [HC106A] | 2.48

Same assay, conditions: Mycobacterium tuberculosis, Table 5, fluorescence inhibition, doses 200 μM to 0.328 μM

SMILES | EC50 [µM]
O=C(NCCc1ccccc1)Nc1ccno1 [MSU-42004, 3-(1,2-oxazol-5-yl)-1-(2-phenylethyl)urea] | 2.36
O=C(Nc1ccc(Cl)c(Cl)c1)Nc1ccno1 [MSU-39452, 1-(3,4-dichlorophenyl)-3-(1,2-oxazol-5-yl)urea] | 2.47
O=C(Nc1ccc(-c2ccccc2)cc1)Nc1ccno1 [MSU-41443, 1-{[1,1′-biphenyl]-4-yl}-3-(1,2-oxazol-5-yl)urea] | 11.2
O=C(NCc1ccccc1)Nc1ccno1 [MSU-41462, 1-benzyl-3-(1,2-oxazol-5-yl)urea] | 1.12
O=C(Nc1ccccc1)Nc1ccno1 [MSU-33189, 3-(1,2-oxazol-5-yl)-1-phenylurea] | 0.63
O=C(Nc1ccc(Cl)cn1)Nc1ccno1 [MSU-39450, 1-(5-chloropyridin-2-yl)-3-(1,2-oxazol-5-yl)urea] | 1.95
CC(C)CNC(=O)Nc1ccno1 [MSU-41542, 3-(2-methylpropyl)-1-(1,2-oxazol-5-yl)urea] | 1.34
O=C(Nc1ccno1)NC1CCCCC1 [MSU-42002, 1-cyclohexyl-3-(1,2-oxazol-5-yl)urea] | 1.21
O=C(Nc1ccno1)NC1CCCC1 [MSU-41546, 1-cyclopentyl-3-(1,2-oxazol-5-yl)urea] | 2.15
O=C(Nc1cccc(Br)c1)Nc1ccno1 [MSU-42003, 1-(3-bromophenyl)-3-(1,2-oxazol-5-yl)urea] | 1.94
CC(C)(C)c1ccc(NC(=O)Nc2ccno2)cc1 [MSU-41442, 1-(4-tert-butylphenyl)-3-(1,2-oxazol-5-yl)urea] | 2.08
COc1ccc(NC(=O)Nc2ccno2)cc1 [MSU-39447, 1-(4-methoxyphenyl)-3-(1,2-oxazol-5-yl)urea] | 0.61
O=C(Nc1ccc(C(F)(F)F)cc1)Nc1ccno1 [MSU-41463, 3-(1,2-oxazol-5-yl)-1-[4-(trifluoromethyl)phenyl]urea] | 1.67
O=C(Nc1cccc(Cl)c1)Nc1ccno1 [MSU-39445, 1-(3-chlorophenyl)-3-(1,2-oxazol-5-yl)urea] | 0.75
O=C(Nc1ccc(Br)cc1)Nc1ccno1 [MSU-41464, 1-(4-bromophenyl)-3-(1,2-oxazol-5-yl)urea] | 1.2
O=C(Nc1ccc(COc2ccccc2)cc1)Nc1ccno1 [MSU-41545, 3-(1,2-oxazol-5-yl)-1-[4-(phenoxymethyl)phenyl]urea] | 4.75
O=C(Nc1ccno1)Nc1ccc(Cl)cc1Cl [HC106A] | 2.48
COC(=O)c1ccc(NC(=O)Nc2ccno2)cc1 [MSU-41465, methyl 4-{[(1,2-oxazol-5-yl)carbamoyl]amino}benzoate] | 1.16
O=C(Nc1ccc(Cl)nc1)Nc1ccno1 [MSU-39448, 1-(6-chloropyridin-3-yl)-3-(1,2-oxazol-5-yl)urea] | 1.42
